{"source": "patent US8906832B2", "about": "“Quantitative analysis of carbohydrate-protein interactions using glycan microarrays: determination of surface and solution dissociation constants” (Academia Sinica, priority 2008, dated 2014)", "test_system": "human monoclonal antibody 2G12", "assay": "Direct binding assay on glycan microarray, antibody 2G12", "settings": "carbohydrates printed at 100 μM", "data": [{"smiles": "NCCCCCO[C@H]1O[C@H](CO)[C@@H](O)[C@H](O)[C@@H]1O", "values": [{"measurement": "interaction with 2G12", "result": "no interaction"}]}]}
